In experiment [1] the target is 92UG-gp140-Fd trimer (HIV-1 isolate 92UG037.8). Description: SPR, 92UGgp140-Fd immobilized, 4D sCD4 flowing, two-step binding model (ka1). On the technique in general: Surface plasmon resonance follows binding to a sensor surface in real time, without labels.
Experiment [2] has the same target. The experiment is described as follows: SPR, 92UGgp140-Fd immobilized, 4D sCD4 flowing, two-step binding model.
Experiment [3] has the same target. Description: SPR, 92UGgp140-Fd immobilized, 4D sCD4 flowing, two-step binding model (kd1).

As a reminder, the kon is the second-order rate constant of association. A higher kon goes with faster complex formation. The Kd is the concentration at which binding is half-saturated. The low end stands for higher affinity, the high end for lower affinity. For orientation: koff means the rate constant with which the complex falls apart. Higher therefore signals a short-lived complex. For “soluble four-domain CD4 (from UniProt P01730 26-394) (receptor)”, in experiment [1], the on-rate (kon) turned out to be 239000 M⁻¹ s⁻¹. In experiment [2], the Kd came out at 1.98 nM, the ka2 stood at 0.0211 s⁻¹ and the kd (second step of the two-step model) was found to be 0.000738 s⁻¹. This substance also registered a dissociation rate constant (koff) in experiment [3] of 0.0141 s⁻¹.

Source of the values: patent US20110086041A1.
